Biological target: Influenza polymerase: myc-tagged PA, PB1 D446Y, PB2 K331A (Influenza A virus A/Hong Kong/156/97)
Test: co-IP

In the case of “Influenza A virus nucleoprotein (NP), untagged, expressed from pcDNA-NP (natural protein)”, the decrease of NP co-immunoprecipitated against wild-type PB2 is reported as 50 % less.

Reference: article PMC7521707, “Interaction between influenza A virus nucleoprotein and PB2 cap-binding domain is mediated by RNA” (2020)
